A short description of the assay: Selectivity index, ratio of IC50 for N-terminal His6-tagged human RNA-N7 MTase expressed in Escherichia coli to IC50 for N7-MTase activity of N-terminal His6-tagged SARS-CoV nsp14 expressed in Escherichia coli.

In the case of `Nc1ncnc2c1ncn2[C@@H]1O[C@H](CN(CCO[C@@H]2[C@H](O)[C@@H](CO)O[C@H]2n2cnc3c(N)ncnc32)S(=O)(=O)c2ccc(Cl)c([N+](=O)[O-])c2)[C@@H](O)[C@H]1O`, the Ratio IC50 stood at 413.

For the origin of these results see ChEMBL document CHEMBL4765355, “Synthesis of adenine dinucleosides SAM analogs as specific inhibitors of SARS-CoV nsp14 RNA cap guanine-N7-methyltransferase” (Eur J Med Chem, 2020).
